Measured values from several laboratories, pooled; numbers as filed in NIAID ChemDB.

Common to all: whole-cell or culture tests; species: Hepatitis C virus; measure: EC50

Neighbouring rows are from separate reports. ECn is the concentration giving n% inhibition of infection, replication or growth. Two numbers with a dash give a range or band. Blank or dashed fields: not listed here.

smiles,strain or isolate,read by,conditions,result
NC(=O)COc1ccc2c(c1)S(=O)(=O)N=C(c1c(O)c3cc(F)ccc3n(CCC3CC3)c1=O)N2,1a 45992,replicon,-,2.1 µM
O=C(Nc1cccc(-c2cc(-c3c(F)cccc3I)no2)c1)C(Cl)Cl,-,replicon,-,≤10 µM
Cc1cccc(Cn2c(C(=O)NS(C)(=O)=O)c(-c3ccc[nH]c3=O)c3c4occc4c(F)cc32)c1F,-,replicon,-,<0.5 µM
CCCC1(C)CC(=O)C2=C(C1)Nc1c(O)cccc1N(C(=O)C(C)C)C2c1ccc(OCc2ccccc2)cc1F,1b,luciferase / reporter gene / replicon,-,0.66 µM
Cc1cc(C)n2nc(CC3=C(O)CC(CCc4ccc(C(C)(C)C#N)c(Cl)c4)(C4CCCC4)OC3=O)nc2n1,M423T,replicon,-,7.3 µM
CCCCCCCCOc1ccc(N(C(=O)C(=O)OCC)c2nc(-c3cccnc3)cs2)cc1,-,-,-,<1 µM
O=C(O)c1sc(-c2ccc(-c3cc4ncccn4n3)cc2)cc1N(C(=O)C1CCC(C(F)(F)F)CC1)C1CCOCC1,1b,replicon / ELISA,-,0.01–0.049 µM
NS(=O)(=O)c1ccc(CNc2nc(C3CC3)c3nc(-c4cccc(S(N)(=O)=O)c4)ccc3n2)cc1,-,replicon,-,<0.1 µM
CC1(C)CC(=O)C2=C(C1)Nc1c(O)cccc1N(C(=O)CCC(=O)O)[C@@H]2c1ccc(OCc2ccccc2)cc1Cl,1b,luciferase / reporter gene / replicon,-,>100 µM
O=C(O)c1sc(-c2ccc(-c3cc4ncccn4n3)cc2)cc1N(C(=O)c1ccc(Cl)cc1Cl)C1CCOCC1,1a,luciferase / replicon,-,0.01–0.05 µM
C[C@H]1COB(O)C1NC(=O)[C@@H]1C[C@@H]2CN1C(=O)[C@H](C(C)(C)C)NC(=O)OCC(C)(C)CCCCc1cccc3c1CN(C3)C(=O)O2,-,replicon,genotype 1b,1.7 µM
CC1(C)CC(=O)C2=C(C1)Nc1c(O)cccc1N(C(=O)CCC(=O)Nc1ccc(-n3cccc3)cc1)C2c1ccc(OCc2ccccc2)cc1Cl,1b,luciferase / reporter gene / replicon,-,0.47 µM
CN1CCN(c2cccc(C(F)(F)F)c2-c2cc(-c3cccc(NC(=O)C(Cl)Cl)c3)on2)CC1,-,replicon,-,≤10 µM
Cc1cc(Br)ccc1C(=O)N(c1cc(-c2ccc(-c3cc4ncccn4n3)cc2)sc1C(=O)O)C(C)C,1b,luciferase / replicon,-,0.05–0.1 µM
CCCCCCCOc1ccc(N(C(=O)C(=O)OC)c2nc(-c3cccnc3)cs2)cc1,-,-,-,<1 µM
O=C(Nc1cccc(-c2cc(-c3cc(C(F)(F)F)ccc3Cl)no2)c1)C(Cl)Cl,-,replicon,-,>10 µM
COCC(COC)N(C(=O)C1CCC(C)CC1)c1cc(-c2ccc(-c3cc4ncccn4n3)cc2)sc1C(=O)O,1b,replicon / ELISA,-,0.001–0.0049 µM
CC(C)NC(=O)N1c2cccc(O)c2NC2=C(C(=O)CC(C)(C)C2)C1c1ccc(Cl)cc1Cl,1b,luciferase / reporter gene / replicon,-,10.06 µM
CCCCCOc1ccc(N(C(=O)c2cc(C)on2)c2nc(-c3ccc(Cl)s3)cs2)cc1C(F)(F)F,-,-,-,<1 µM
O=C(Nc1cccc(-c2cc(-c3c(Cl)cccc3Cl)no2)c1)C(Cl)Cl,-,replicon,-,≤10 µM
O=C(O)c1sc(-c2ccc(-c3cc4ncccn4n3)cc2)cc1N(C(=O)c1ccc(Cl)cc1F)C1CCOCC1,1a,luciferase / replicon,-,0.05–0.1 µM
CCCCCOc1ccc(N(C(N)=O)c2nc(-c3ccc(C)nc3)cs2)cc1F,-,-,-,<1 µM
O=C(Nc1cccc(-c2cc(-c3c(Cl)cccc3OCCN3CCOCC3)no2)c1)C(Cl)Cl,-,replicon,-,≤10 µM
COCC(C)N(C(=O)c1ccc(Cl)cc1F)c1cc(-c2ccc(-c3cc4ncccn4n3)cc2)sc1C(=O)O,1a,luciferase / replicon,-,0.01–0.05 µM
O=C(N[C@H]1CCCCC/C=C\[C@@H]2C[C@@]2(C(=O)NS(=O)(=O)C2CC2)NC(=O)[C@@H]2CC(Oc3ccncc3)CN2C1=O)OCCF,-,luciferase / reporter gene,-,0.29 µM
CS(=O)(=O)C1CCN(c2nc(NCc3ccc(F)cc3)nc3ccc(-c4ccc(F)cc4)nc23)C1,-,replicon,-,<0.1 µM
CCOC(=O)c1c(-c2ccccc2F)c2c3c(C)c(C)[nH]c3ccc2n1Cc1ccccc1,-,replicon,-,>1.5 µM
COCC(C)N(C(=O)C1CCC(C)CC1)c1cc(-c2ccc(-c3cc4ncccn4n3)cc2)sc1C(=O)O,1a,replicon / ELISA,-,0.005–0.0099 µM
CC1(C)CC(=O)C2=C(C1)Nc1c(O)cccc1N(C(=O)CCC(=O)Nc1ccccc1C(F)(F)F)C2c1ccc(OCc2ccccc2)cc1Cl,1b,luciferase / reporter gene / replicon,-,3.35 µM
CC1CCC(C(=O)N(c2cc(-c3ccccc3)sc2C(=O)O)C2CCOCC2)CC1,1a,replicon / ELISA,-,0.1–0.49 µM
NC(=O)N(c1ccc(OCC2CCCCC2)c(F)c1)c1nc(-c2ccc3c(c2)NC(=O)CO3)cs1,-,-,-,>10 µM
COCC(C)N(C(=O)C1CCC(C)CC1)c1cc(-c2ccccc2)sc1C(=O)O,1b,replicon / ELISA,-,0.1–0.49 µM
Cc1ccccc1Cn1c(C(=O)NS(=O)(=O)C2CC2)c(-c2ccc[nH]c2=O)c2c3occc3ccc21,-,replicon,-,<0.5 µM
CC(C)C(=O)N1c2cccc(O)c2NC2=C(C(=O)CC(C)(C)C2)[C@H]1c1ccc(OCc2ccccc2)cc1F,1b,luciferase / reporter gene / replicon,-,1.95 µM
O=C(Nc1cccc(-c2cc(-c3cccc(Cl)c3Cl)no2)c1)C(Cl)Cl,-,replicon,-,>10 µM
COCCN(C(=O)C1CCC(C)CC1)c1cc(-c2ccc(-c3cc4nccc(N)n4n3)cc2)sc1C(=O)O,1a,replicon / ELISA,-,0.001–0.0049 µM
Cc1ccc(O)c2c1N(C(=O)c1cnccn1)C(c1ccc(OCc3ccccc3)cc1F)C1=C(CC(C)(C)CC1=O)N2,1b,luciferase / reporter gene / replicon,-,4.38 µM
COc1ccc([N+](=O)[O-])cc1Cn1c(C(=O)O)c(-c2ccc[nH]c2=O)c2c3occc3ccc21,-,replicon,-,>1.5 µM
CC(=O)N1c2cccc(O)c2NC2=C(C(=O)CC(C)(C)C2)C1c1ccc(C#N)cc1,1b,luciferase / reporter gene / replicon,-,57.23 µM
O=C(O)c1c(-c2ccc[nH]c2=O)c2c3occc3c(F)cc2n1Cc1cc[nH]c(=O)c1,-,replicon,-,<0.5 µM
CC(C)N1CCN(S(=O)(=O)c2cc(-c3ccc4nc(NCc5ccc(S(N)(=O)=O)cc5)nc(NCC(F)(F)F)c4n3)ccc2F)CC1,-,replicon,-,<0.1 µM
CCc1coc2c1ccc1c2c(-c2ccc[nH]c2=O)c(C(=O)O)n1Cc1cc(F)ccc1F,-,replicon,-,>1.5 µM
CCCCCOc1ccc(N(C(=O)C(C)OC(C)=O)c2nc(-c3cccnc3)cs2)cc1C(F)(F)F,-,-,-,<1 µM
CC(C)N(C(=O)c1ccc(Cl)cc1F)c1cc(-c2ccc(-c3cn4ccccc4n3)cc2)sc1C(=O)O,1a,luciferase / replicon,-,0.01–0.05 µM
CCCCCOc1ccc(N(C)c2nc(-c3cccnc3)cs2)cc1C(F)(F)F,-,-,-,<1 µM
COCCN(C(=O)C1CCC(C)CC1)c1cc(-c2ccc(-c3cc4ncccn4n3)cc2)sc1C(=O)O,1b,replicon / ELISA,-,0.001–0.0049 µM
CN(C)C(=O)c1ccc(CNc2nc(NCC(F)(F)F)c3nc(-c4ccc(F)cc4)ccc3n2)cc1,-,replicon,-,<0.1 µM
CS(=O)(=O)c1cccc(F)c1-c1cc(-c2cccc(NC(=O)C(Cl)Cl)c2)on1,-,replicon,-,>10 µM
CB1OC[C@@H](C)C1NC(=O)[C@@H]1C[C@@H]2CN1C(=O)[C@H](C(C)(C)C)NC(=O)OCC(C)(C)CCCCc1cccc3c1CN(C3)C(=O)O2,-,replicon,genotype 1b,30 µM
CCOc1nc(NCCS(N)(=O)=O)nc2ccc(-c3ccc(F)cc3)nc12,-,replicon,-,<0.1 µM
O=C1N[C@H]2C(=O)N[C@H]3C(=O)N[C@H](C(=O)N[C@H](C(=O)O)c4cc(O)cc(O)c4-c4cc3ccc4O)[C@H](O)c3ccc(c(Cl)c3)Oc3cc2cc(c3O)Oc2ccc(cc2Cl)C[C@H]2NC(=O)[C@H](NOC(=O)C34CC5CC(CC(C5)C3)C4)c3ccc(O)c(c3)Oc3cc(O)cc(c3)[C@@H]1NC2=O,Huh 5-2,luciferase,-,4.6 µM

4 of the rows above, restated:

smiles	strain or isolate	read by	conditions	result
O=C1N[C@H]2C(=O)N[C@H]3C(=O)N[C@H](C(=O)N[C@H](C(=O)O)c4cc(O)cc(O)c4-c4cc3ccc4O)[C@H](O)c3ccc(c(Cl)c3)Oc3cc2cc(c3O)Oc2ccc(cc2Cl)C[C@H]2NC(=O)[C@H](NOC(=O)C34CC5CC(CC(C5)C3)C4)c3ccc(O)c(c3)Oc3cc(O)cc(c3)[C@@H]1NC2=O	Huh 5-2	luciferase	-	4.6 µM
CS(=O)(=O)C1CCN(c2nc(NCc3ccc(F)cc3)nc3ccc(-c4ccc(F)cc4)nc23)C1	-	replicon	-	<0.1 µM
CCOc1nc(NCCS(N)(=O)=O)nc2ccc(-c3ccc(F)cc3)nc12	-	replicon	-	<0.1 µM
O=C(Nc1cccc(-c2cc(-c3c(F)cccc3I)no2)c1)C(Cl)Cl	-	replicon	-	≤10 µM